Laboratory results: BindingDB's records for doi:10.1021/acs.jmedchem.7b01709 (Kobe Gakuin University, 2018)

Assay: Inhibition of protease L10F/V32I/M46I/I47V/Q58E/I84V mutant in HIV1 A17 infected in human MT4 cells assessed as reduction in virus-induced cytopathic effect after 5 days by MTT assay

## Cc1cccc(C)c1OCC(=O)N[C@@H](Cc1ccccc1)[C@@H](O)C[C@H](Cc1ccccc1)NC(=O)[C@H](C(C)C)N1CCCNC1=O [CHEBI:31781]
  EC50: 1160 nM
